# PSTVd stem 15 mutant pool in Nicotiana benthamiana

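Three N. benthamiana plants were inoculated with the whole mutant pool. Progeny were sequenced from the inoculated region (day 5), the margin of the inoculated leaf (day 10) and systemic leaves (day 12).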

The pool varies stem 15 of the PSTVd intermediate strain in the pattern CUGGAGCGAUNGNNUNNG; wild type is CUGGAGCGAUCGCUUCGG (upper and lower strand joined, each 5' to 3', the first 9 letters being the upper strand).

Numbers give reads per thousand; 0 = not seen among the reads, higher = more abundant. Each site shows the three plants. "Pool" is the share in the plasmid pool used as inoculum, on the same scale. The inoculated region was read from the minus strand, the other sites from the plus strand. With 36,693-63,082 reads a sample, very low values are single reads. The authors trace changes outside the varied positions to PCR and sequencing errors or to mutation in the plant; presence does not show that a variant is infectious alone. Wild type was 10.2 per thousand in the pool and the most common sequence in every sample (inoculated region 285, 367, 312; leaf margin 785, 865, 782; systemic leaves 854, 898, 915).

sequence	pool	inoculated region	leaf margin	systemic leaves
CUGGAGCGAUCGAUUAUG	1.08	0.294 / 0.251 / 0.298	0.0620 / 0 / 0.0317	0 / 0 / 0
CUGGAGCGAUCGACUUAG	0.695	1.51 / 1.15 / 0.298	0.0620 / 0.0273 / 0.0476	0 / 0 / 0
CUGGAGCGAUCGGAUGCG	0.840	0.235 / 0.377 / 0.391	0.103 / 0 / 0	0 / 0 / 0
CUGGAGCGAUCGGCUUUG	0.921	0.176 / 0.209 / 0.279	0.145 / 0.0545 / 0	0 / 0 / 0
CUGGAGCGAUGGACUUAG	0.889	1.64 / 0.838 / 1.62	0.476 / 0.0273 / 0.793	0 / 0 / 0
CUGGAGCGAUUGUUUUAG	0.889	1.74 / 1.24 / 1.84	0.786 / 0.354 / 0.888	1.01 / 0.665 / 0.458
CUGGAGCGAUCGACUGUG	0.566	0.137 / 0.335 / 0.354	0.0620 / 0.0545 / 0.0159	0 / 0 / 0
CUGGAGCGAUCGACUUGG	1.00	0.274 / 1.09 / 0.279	0.0620 / 0.0545 / 0.0159	0 / 0 / 0
CUGGAGCGAUGGCCUCUG	0.937	0.196 / 0.168 / 0.242	0.0207 / 0.0273 / 0.0159	0 / 0 / 0
CUGGAGCGAUUGCCUGGG	0.986	0.333 / 0.251 / 0.279	0.0620 / 0 / 0.0159	0 / 0 / 0
CUGGAGCGAUCGGCUUCG	1.78	1.13 / 2.11 / 30.8	0.0207 / 0 / 0.0476	0 / 0 / 0.0399
CUGGAGCGAUAGGUUGGG	0.808	0.313 / 0.230 / 0.316	0.0207 / 0.0273 / 0.0159	0 / 0 / 0
CUGGAGCGAUAGGUUUAG	0.630	0.274 / 0.377 / 0.335	0 / 0.0273 / 0	0 / 0 / 0
CUGGAGCGAUAGUGUCGG	0.743	0.352 / 0.293 / 0.261	0.0620 / 0.0545 / 0.0159	0 / 0 / 0
CUGGAGUGAUAGAGUCUG	0.0162	0 / 0 / 0.0186	0 / 0 / 0	0 / 0 / 0
CUGGAGCGAUUGGUUUCG	0.614	0.274 / 0.251 / 0.279	0.0620 / 0.0273 / 0.0159	0 / 0 / 0
CUGGAGCGAUUGUGUCUG	0.743	0.372 / 0.314 / 0.316	0 / 0.109 / 0.0317	0 / 0 / 0
CUGGAGCGAUGGCCUAAG	0.937	0.176 / 0.272 / 0.298	0 / 0 / 0	0 / 0 / 0
CUGGAGCGAUAGUGUAGG	1.37	0.450 / 0.503 / 0.447	0.103 / 0.0273 / 0.0317	0 / 0 / 0
CUGGAGCGAUAGCUUAAG	0.986	0.176 / 0.230 / 0.372	0.0207 / 0.0545 / 0.0159	0 / 0 / 0
CUGGAGCGAUAGGAUCUG	0.776	0.294 / 0.209 / 0.298	0 / 0.0545 / 0.0159	0 / 0 / 0
CUGGAGCGAUCGAUUAAG	0.760	0.176 / 0.272 / 0.205	0.0207 / 0.0273 / 0.0317	0 / 0 / 0
CUGGGGCGAUCGUUUUGG	0.0162	0 / 0 / 0	0 / 0 / 0	0 / 0 / 0
CUGGAGCGAUAGUGUAAG	0.679	0.313 / 0.356 / 0.335	0 / 0 / 0	0 / 0 / 0
CUGGAGCGAUGGUAUCGG	2.02	0.920 / 1.17 / 0.838	0.0827 / 0.0545 / 0.0317	0 / 0.0222 / 0
CUGGAGCGAUUGGGUCAG	0.873	0.430 / 0.272 / 0.409	0.0620 / 0.0273 / 0.0159	0 / 0 / 0
CUGGAGCGAUAGGUUGCG	1.00	0.313 / 0.209 / 0.279	0.0620 / 0.0273 / 0.0317	0 / 0 / 0
CGGGAGCGAUAGCAUCCG	0.0162	0 / 0 / 0	0 / 0 / 0	0 / 0 / 0
CUGGAGCGAUUGUCUUCG	0.824	2.00 / 1.11 / 1.32	0.600 / 0.409 / 0.935	0.772 / 0.643 / 0.299
CUGGAGCGAUCGUAUAGG	0.760	0.176 / 0.314 / 0.242	0.0620 / 0.0273 / 0.0317	0 / 0 / 0
CUGGAGCGAUCGUAUUCG	0.857	0.254 / 0.272 / 0.279	0.0414 / 0.0818 / 0.0159	0 / 0 / 0
CUGGAGCGAUUGGUUGGG	0.889	0.313 / 0.230 / 0.354	0.0620 / 0 / 0.0159	0 / 0 / 0
CUGGAGCGAUCGAUUGUG	0.808	0.313 / 0.293 / 0.335	0.0207 / 0.0818 / 0.0159	0 / 0 / 0
CUGGAGCGAUCGUAUUGG	1.03	0.215 / 1.15 / 0.223	0.0620 / 0 / 0.0159	0 / 0 / 0
CUGGAGCGAUGGUCUGAG	0.873	3.82 / 1.82 / 1.43	0.103 / 0 / 0.840	0 / 0 / 0
CUGGAGCGAUAGCCUUAG	0.905	2.02 / 1.03 / 1.30	0.538 / 0.136 / 1.11	0 / 0 / 0
CUGGAGCGAUUGACUGCG	0.679	0.274 / 0.293 / 0.391	0 / 0.109 / 0.0159	0 / 0 / 0
CUGGAGCGAUAGUUUCCG	0.905	0.294 / 0.272 / 0.223	0.0620 / 0.0273 / 0.0159	0 / 0 / 0
CUGGAGCGAUUGGAUGAG	0.743	0.313 / 0.188 / 0.261	0.0620 / 0.0273 / 0.0159	0 / 0 / 0
CUGGAGCGAUAGGCUUCG	0.630	0.254 / 0.126 / 0.316	0.103 / 0.0545 / 0.0159	0 / 0 / 0
CUGGAGCGAUGGGUUUCG	0.873	0.254 / 0.188 / 0.205	0.0414 / 0.0545 / 0.0317	0 / 0 / 0
CUGGAGCGAUGGCGUCAG	0.727	0.313 / 0.377 / 0.316	0.0827 / 0.0818 / 0.0317	0 / 0 / 0
CUGGAGCGAUGGCAUUGG	1.02	0.509 / 0.335 / 0.465	0 / 0 / 0.0317	0 / 0 / 0
CUGGAGCGAUCGGCUGGG	0.921	0.372 / 0.377 / 0.261	0.0414 / 0.0273 / 0.0159	0 / 0 / 0
CUGGAGCGAUGGAGUUAG	1.07	0.430 / 0.984 / 0.298	0.124 / 0.0273 / 0.0317	0 / 0 / 0
CUGGAGCGAUUGUGUACG	0.905	0.391 / 0.251 / 0.409	0.0207 / 0.0818 / 0.0317	0 / 0 / 0
CUGGAGCGAUAGUAUGCG	0.889	0.215 / 0.335 / 0.372	0.124 / 0.0273 / 0.0317	0 / 0 / 0
CUGGAGCGAUCGGUUAUG	1.87	1.17 / 1.42 / 1.36	0.0414 / 0.0273 / 0.0159	0 / 0 / 0.0199
CUGGAGCGAUAGACUGGG	2.15	1.74 / 1.82 / 1.99	0.0827 / 0.0273 / 0.602	0.0198 / 0 / 0
CUGGAGCGAUAGAUUAUG	0.646	0.176 / 0.230 / 0.242	0 / 0 / 0.0159	0 / 0 / 0
CUGGAGCGAUUGUUUGCG	0.857	0.313 / 0.293 / 0.205	0.0620 / 0 / 0.0317	0 / 0 / 0
CUGGAGCGAUGGCAUUCG	0.824	0.215 / 0.440 / 0.316	0.0414 / 0.0273 / 0.0317	0 / 0 / 0
CUGGAGCGAUCGGUUCCG	0.873	0.352 / 0.335 / 0.428	0.0620 / 0.0273 / 3.04	0 / 0 / 0
CUGGAGCGAUUGAAUUAG	1.16	1.70 / 1.01 / 1.88	0.662 / 0.491 / 0.840	0.752 / 0.377 / 0
CUGGAGCGAUUGGCUGAG	0.808	2.58 / 1.05 / 1.77	0.0827 / 2.43 / 0.808	0 / 0 / 0
CUGGAGCGAUAGGCUCUG	0.921	0.274 / 0.251 / 0.261	0.124 / 0.0818 / 0.0793	0 / 0 / 0
CUGGAGCGAUAGAAUAAG	1.03	0.215 / 0.251 / 0.242	0.0414 / 0.0273 / 0.0317	0 / 0 / 0
CUGGAGCGAUGGACUAUG	0.905	0.196 / 0.335 / 0.316	0.0414 / 0.0273 / 0	0 / 0 / 0
CUGGAGCGAUAGCGUGCG	0.889	0.274 / 0.230 / 0.409	0.103 / 0.0273 / 0.0317	0 / 0 / 0
CUGGAGCGAUGGCCUUGG	0.986	0.274 / 0.377 / 0.354	0 / 0 / 0	0 / 0 / 0
CUGGAGCGAUCGACUAGG	0.695	0.117 / 0.314 / 0.316	0 / 0.0818 / 0.0159	0 / 0 / 0
CUGGAGCGAUUGAUUCCG	0.840	0.157 / 0.251 / 0.335	0.0207 / 0.0273 / 0.0793	0 / 0 / 0
AUGGAGCGAUCGCUUGGG	0.0162	0 / 0 / 0	0 / 0 / 0	0 / 0 / 0

Extract of 4 entries:

With CUGGAGCGAUAGGAUCUG (pool 0.776) the assay gave inoculated region 0.294 / 0.209 / 0.298; leaf margin 0 / 0.0545 / 0.0159; systemic leaves 0 / 0 / 0.
With CUGGAGCGAUAGGUUUAG (pool 0.630) the assay gave inoculated region 0.274 / 0.377 / 0.335; leaf margin 0 / 0.0273 / 0; systemic leaves 0 / 0 / 0.
With CUGGAGCGAUCGGUUCCG (pool 0.873) the assay gave inoculated region 0.352 / 0.335 / 0.428; leaf margin 0.0620 / 0.0273 / 3.04; systemic leaves 0 / 0 / 0.
With CUGGAGCGAUAGCGUGCG (pool 0.889) the assay gave inoculated region 0.274 / 0.230 / 0.409; leaf margin 0.103 / 0.0273 / 0.0317; systemic leaves 0 / 0 / 0.

Data from the supplement of Wu et al. 2024, doi:10.1371/journal.ppat.1012142.